Here are results for one compound from paper PMC5449093, “Selective inhibitors of trypanosomal uridylyl transferase RET1 establish druggability of RNA post-transcriptional modifications” (RNA Biology, 2016).

Protein sequences, listed by entry. Tags and fused reporters are not part of them. Chains listed by the source or under a name are the forms on record and can include a tag or linker. Residues count along the entry.
UniProt Q8WQX5, 1-976 with tags or gaps A749G/DEL18-18/G858D/N24H/V111I/W59S: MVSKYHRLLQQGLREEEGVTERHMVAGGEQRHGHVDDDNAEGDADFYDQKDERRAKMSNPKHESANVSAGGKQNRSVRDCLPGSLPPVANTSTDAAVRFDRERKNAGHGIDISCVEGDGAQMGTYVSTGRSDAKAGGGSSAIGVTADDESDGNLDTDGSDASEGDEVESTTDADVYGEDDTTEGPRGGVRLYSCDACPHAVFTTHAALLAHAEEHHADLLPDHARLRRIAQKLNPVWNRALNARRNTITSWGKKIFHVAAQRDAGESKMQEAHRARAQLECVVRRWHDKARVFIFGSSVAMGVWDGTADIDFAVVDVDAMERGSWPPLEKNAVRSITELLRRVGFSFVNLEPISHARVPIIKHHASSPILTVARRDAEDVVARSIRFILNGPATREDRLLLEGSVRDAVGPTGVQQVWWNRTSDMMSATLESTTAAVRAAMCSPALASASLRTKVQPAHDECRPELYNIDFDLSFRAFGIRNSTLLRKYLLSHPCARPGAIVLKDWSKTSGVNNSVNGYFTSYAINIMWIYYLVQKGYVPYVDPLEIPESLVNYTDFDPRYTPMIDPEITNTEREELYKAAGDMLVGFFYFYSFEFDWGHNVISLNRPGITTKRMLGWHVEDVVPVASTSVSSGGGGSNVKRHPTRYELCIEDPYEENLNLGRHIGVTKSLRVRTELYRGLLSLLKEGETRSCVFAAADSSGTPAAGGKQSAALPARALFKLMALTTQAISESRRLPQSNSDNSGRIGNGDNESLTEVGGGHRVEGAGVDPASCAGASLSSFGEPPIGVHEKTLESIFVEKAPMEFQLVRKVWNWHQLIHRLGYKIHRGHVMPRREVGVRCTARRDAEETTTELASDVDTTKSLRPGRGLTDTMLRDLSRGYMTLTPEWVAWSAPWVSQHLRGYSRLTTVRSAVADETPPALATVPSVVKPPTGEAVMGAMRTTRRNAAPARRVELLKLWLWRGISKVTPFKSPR

Where two headings read alike, the source gives them in different places.

Assay [1] addresses T1, RET1 (Trypanosoma brucei brucei, UniProt Q8WQX5, A749G/DEL18-18/G858D/N24H/V111I/W59S). Nature of the assay: Gel based assay for RET1 uridylylation activity (Sybr Gold). To be noted: qualitative class: inactive, moderate or strong inhibitor; inhibitor 50 µM per method. The format is biochemical.
Assay [2] concerns the target T1, RET1. Nature of the assay: Luciferase coupled PPi assay, 384 well format, RET1. The format is biochemical. The protocol:
Reactions were made up in Corning® 384 Well Low Flange White Flat Bottom Polystyrene TC-Treated Micro plates (Product #3570). RET1 enzyme was added at 0.1 μl (0.2 mgml^−1), UTP (Thermo Scientific R0471 100 mM) and RNA substrate final concentrations were equal to their Km: 50 μM and 20 nM respectively.[18] The volume was made up to 10 μl with buffer 6 (Tris pH 7.5 10 mM, KCl 10 mM, DTT 1 mM, MgCl2 3.2 mM) and the reaction was incubated 20 mins at 25°C, then heat inactivated at 65°C for 10 mins. Test compounds were added in 0.5 μl of DMSO stock solution. The positive control included of 0.5 μl of DMSO. After a 10 min cooling period, 5 μl of each of detection and conversion reagents from PPiLight™ Inorganic Pyrophosphate Assay Kit (Lonza, LT07-610) were added. Luminescence was read with a Pherastar Plus micro plate reader. IC50 determinations were carried out in triplicate using the luciferase assay protocol in a dilution series of 1 mM to 99 nM.

Another assay deals with CID1 poly (U) polymerase. To be noted: RET1 over CID1, calculated from IC50 values.

The IC50 is the point on the concentration scale where inhibition reaches its midpoint. On to `CC1(COc2ccc(CC3SC(=O)NC3=O)cc2)CCCCC1` (stereo not shown), for which the “Gel Assay (qualitative activity in gel based assay)” value at RET1 [1] is “strong”. Further, the IC50 was found to be 500 µM on RET1 [2] (read-out: RET1 IC50, PPi assay 384-well follow-up, UTP 50 µM, RNA 20 nM) and 500 µM on RET1 [2] (read-out: RET1 Inhibition IC50, selectivity experiment, Table 2). Further, the “RET1 Selectivity (fold)” value in the assay on CID1 poly (U) polymerase is on record as 2 fold.
